Measured values as given in US10195189B2, “2-phenethenyltetrahydro isoquinolines useful as anti-HIV compounds” (priority 2014, dated 2019).

What follows are molecules tested on HIV-1 NL4-3 viral clone expressing Renilla luciferase. Details: ratio of CC50 over EC50.
Assay type: cell-based
Method in brief: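 MT-2 cells (2×10^4/well) were infected at MOI 0.027 with Renilla-luciferase HIV-1 NL4-3 alongside 3-fold compound dilutions for 96 h. Spread was read by EnduRen luminescence and supernatant infectivity on TZM-bl (48 h, MUG fluorescence). Mock-infected cytotoxicity used AlamarBlue. % inhibition versus solvent was fitted by 4-parameter logistic (0–100% constrained) for EC50/CC50.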

Compared with `COCCCCOc1cc(OC)ccc1/C=C/C1NCCc2cc(OCc3ccccc3)c(OC)cc21` (centres unmarked) [Example AI, (E)-6-(benzyloxy)-7-methoxy-1-(4-methoxy-2-(4-methoxybutoxy)styryl)-1,2,3,4-tetrahydroisoquinoline], `COc1ccc(/C=C/C2NCCc3cc(OCc4ccccc4)c(OC)cc32)c(C(F)(F)F)c1` (centres unmarked) [Example Z, 6-benzyloxy-7-methoxy-1-[(E)-2-[4-methoxy-2-(trifluoromethyl)phenyl]vinyl]-1,2,3,4-tetrahydroisoquinoline] is higher in SI: 3.9 for the first, 17.1 for the second.

Compared with `COc1cc2c(cc1OCc1ccccc1)CCNC2/C=C/c1ccc(OC(F)(F)F)cc1C` (centres unmarked) [Example AJ, (E)-6-(benzyloxy)-7-methoxy-1-(2-methyl-4-(trifluoromethoxy)styryl)-1,2,3,4-tetrahydroisoquinoline], `COc1cc2c(cc1OCc1ccccc1)CCNC2/C=C/c1ccc(F)cc1C` (centres unmarked) [Example X, 6-benzyloxy-1-[(E)-2-(4-fluoro-2-methyl-phenyl)vinyl]-7-methoxy-1,2,3,4-tetrahydroisoquinoline] is higher in SI: 1.83 for the first, 8.53 for the second.

First: COc1cc2c(cc1OCc1ccccc1)CCNC2/C=C/c1ccnn1C (centres unmarked) [Example AK, 6-benzyloxy-7-methoxy-1-[(E)-2-(2-methylpyrazol-3-yl)vinyl]-1,2,3,4-tetrahydroisoquinoline]
Second: CCn1cc(/C=C/C2NCCc3cc(OCc4ccccc4)c(OC)cc32)cn1 (centres unmarked) [Example AL, 6-Benzyloxy-1-[(E)-2-(1-ethylpyrazol-4-yl)vinyl]-7-methoxy-1,2,3,4-tetrahydroisoquinoline]
The SI of the first is lower: 1.1 for the first, 8.2 for the second.

Compared with `COc1cc2c(cc1OCc1ccccc1)CCNC2/C=C/c1cc(OC)c(OC)c(OC)c1` (centres unmarked) [Example AM, 6-Benzyloxy-7-methoxy-1-[(E)-2-(3,4,5-trimethoxyphenyl)vinyl]-1,2,3,4-tetrahydroisoquinoline], `COc1cc2c(cc1OC)C(/C=C/c1cc(OCc3ccccc3)c(OC)cc1C)NCC2` (centres unmarked) [Example C, 1-[(E)-2-(5-Benzyloxy-4-methoxy-2-methyl-phenyl)vinyl]-6,7-dimethoxy-1,2,3,4-tetrahydroisoquinoline] is lower in SI: 27.3 for the first, 1.1 for the second.

First: COc1cc2c(cc1OCc1ccccc1)CCNC2/C=C/c1ccc(OC)c2occc12 (centres unmarked) [Example AN, 6-Benzyloxy-7-methoxy-1-[(E)-2-(7-methoxybenzofuran-4-yl)vinyl]-1,2,3,4-tetrahydroisoquinoline]
Second: COc1cc2c(cc1OCc1ccccc1)CCNC2/C=C/c1ccc(OC)c2ccoc12 (centres unmarked) [Example AO, 6-Benzyloxy-7-methoxy-1-[(E)-2-(4-methoxybenzofuran-7-yl)vinyl]-1,2,3,4-tetrahydroisoquinoline]
The SI of the first is higher: 26.8 for the first, 8.8 for the second.

First: COc1ccc(/C=C/C2c3cc(OC)c(OCc4ccccc4)cc3CCN2C(=O)c2cnccn2)cc1OCc1ccccc1 (centres unmarked) [Example B, [6-Benzyloxy-1-[(E)-2-(3-benzyloxy-4-methoxy-phenyl)vinyl]-7-methoxy-3,4-dihydro-1H-isoquinolin-2-yl]-pyrazin-2-yl-methanone]
Second: COc1cc(C)c(/C=C/C2c3cc(OC)c(OCc4ccccc4)cc3CCN2C(=O)c2cnccn2)cc1OCc1ccccc1 (centres unmarked) [Example H, [6-Benzyloxy-1-[(E)-2-(5-benzyloxy-4-methoxy-2-methyl-phenyl)vinyl]-7-methoxy-3,4-dihydro-1H-isoquinolin-2-yl]-pyrazin-2-yl-methanone]
The SI of the first is lower: 0.5 for the first, 22.3 for the second.

First: COc1cc(C)c(/C=C/C2c3cc(OC)c(OCc4ccccc4)cc3CCN2C)cc1OCc1ccccc1 (centres unmarked) [Example E, 6-Benzyloxy-1-[(E)-2-(5-benzyloxy-4-methoxy-2-methyl-phenyl)vinyl]-7-methoxy-2-methyl-3,4-dihydro-1H-isoquinoline]
Second: COc1cc(C)c(/C=C/C2c3cc(OC)c(OCc4ccccc4)cc3CCN2C(N)=O)cc1OCc1ccccc1 (centres unmarked) [Example R, 6-benzyloxy-1-[(E)-2-(5-benzyloxy-4-methoxy-2-methyl-phenyl)vinyl]-7-methoxy-3,4-dihydro-1H-isoquinoline-2-carboxamide]
The SI of the first is lower: 0.8 for the first, 33.1 for the second.

Compared with `COc1cc(C)c(/C=C/C2c3cc(OC)c(OCc4ccccc4)cc3CCN2C(=O)c2cccc(N)n2)cc1OCc1ccccc1` (centres unmarked) [Example F, (6-Amino-2-pyridyl)-[6-benzyloxy-1-[(E)-2-(5-benzyloxy-4-methoxy-2-methyl-phenyl)vinyl]-7-methoxy-3,4-dihydro-1H-isoquinolin-2-yl]methanone], `COc1cc(C)c(/C=C/C2c3cc(OC)c(OCc4ccccc4)cc3CCN2C(=O)c2ccc(N)nc2)cc1OCc1ccccc1` (centres unmarked) [Example P, (6-amino-3-pyridyl)-[6-benzyloxy-1-[(E)-2-(5-benzyloxy-4-methoxy-2-methyl-phenyl)vinyl]-7-methoxy-3,4-dihydro-1H-isoquinolin-2-yl]methanone] is higher in SI: 19.8 for the first, 59.17 for the second.

Going from `CCCCN1CCc2cc(OCc3ccccc3)c(OC)cc2C1/C=C/c1ccc(OC)c(OCc2ccccc2)c1` (centres unmarked) [Example G, 6-Benzyloxy-1-[(E)-2-(3-benzyloxy-4-methoxy-phenyl)vinyl]-2-butyl-7-methoxy-3,4-dihydro-1H-isoquinoline] to `COc1ccc(/C=C/C2c3cc(OC)c(OCc4ccccc4)cc3CCN2C)cc1OCc1ccccc1` (centres unmarked) [Example V, 6-benzyloxy-1-[(E)-2-(3-benzyloxy-4-methoxy-phenyl)vinyl]-7-methoxy-2-methyl-3,4-dihydro-1H-isoquinoline], the SI rises from 1 to 8.5.

Going from `COC(=O)N1CCc2cc(OCc3ccccc3)c(OC)cc2C1/C=C/c1cc(OC)c(OC)cc1C` (centres unmarked) [Example I, Methyl 6-benzyloxy-1-[(E)-2-(4,5-dimethoxy-2-methyl-phenyl)vinyl]-7-methoxy-3,4-dihydro-1H-isoquinoline-2-carboxylate] to `COc1cc(C)c(/C=C/C2c3cc(OC)c(OCc4ccccc4)cc3CCN2C(=O)OC(C)(C)C)cc1OCc1ccccc1` (centres unmarked) [Example Y, tert-butyl 6-benzyloxy-1-[(E)-2-(5-benzyloxy-4-methoxy-2-methyl-phenyl)vinyl]-7-methoxy-3,4-dihydro-1H-isoquinoline-2-carboxylate], the SI rises from 22.3 to 71.2.

Going from `COc1cc(C(C)(C)C)c(/C=C/C2NCCc3cc(OCc4ccccc4)c(OC)cc32)cc1OCc1ccccc1` (centres unmarked) [Example J, 6-Benzyloxy-1-[(E)-2-(5-benzyloxy-2-tert-butyl-4-methoxy-phenyl)vinyl]-7-methoxy-1,2,3,4-tetrahydroisoquinoline] to `COc1cc(/C=C/C2NCCc3cc(OC)c(OCc4ccccc4)cc32)ccc1OCc1ccccc1` (centres unmarked) [Example S, 7-benzyloxy-1-[(E)-2-(4-benzyloxy-3-methoxy-phenyl)vinyl]-6-methoxy-1,2,3,4-tetrahydroisoquinoline], the SI rises from 1.27 to 8.3.

First: COc1cc(C)c(/C=C/C2c3cc(OC)c(OCc4ccccc4)cc3CCN2C(=O)c2cccnc2N)cc1OCc1ccccc1 (centres unmarked) [Example K, (2-Amino-3-pyridyl)-[6-benzyloxy-1-[(E)-2-(5-benzyloxy-4-methoxy-2-methyl-phenyl)vinyl]-7-methoxy-3,4-dihydro-1H-isoquinoline-2-yl]methanone]
Second: COc1cc(C)c(/C=C/C2c3cc(OC)c(OCc4ccccc4)cc3CCN2C(=O)c2ccnc(N)c2)cc1OCc1ccccc1 (centres unmarked) [Example N, (2-amino-4-pyridyl)-[6-benzyloxy-1-[(E)-2-(5-benzyloxy-4-methoxy-2-methyl-phenyl)vinyl]-7-methoxy-3,4-dihydro-1H-isoquinolin-2-yl]methanone]
The SI of the first is lower: 34.72 for the first, 49.3 for the second.

Compared with `COC(=O)N1CCc2cc(OCc3ccccc3)c(OC)cc2C1/C=C/c1ccc(OC)c(OCc2ccccc2)c1` (centres unmarked) [Example L, Methyl 6-benzyloxy-1-[(E)-2-(3-benzyloxy-4-methoxy-phenyl)vinyl]-7-methoxy-3,4-dihydro-1H-isoquinoline-2-carboxylate], `COc1cc(C)c(/C=C/C2c3cc(OC)c(OCc4ccccc4)cc3CCN2C(=O)c2ccccn2)cc1OCc1ccccc1` (centres unmarked) [Example M, [6-benzyloxy-1-[(E)-2-(5-benzyloxy-4-methoxy-2-methyl-phenyl)vinyl]-7-methoxy-3,4-dihydro-1H-isoquinolin-2-yl]-(2-pyridyl)methanone] is higher in SI: 7.11 for the first, 47.8 for the second.

Compared with `COc1cc(C)c(CCC2NCCc3cc(OCc4ccccc4)c(OC)cc32)cc1OCc1ccccc1` (centres unmarked) [Example Q, 6-benzyloxy-1-[2-(5-benzyloxy-4-methoxy-2-methyl-phenyl)ethyl]-7-methoxy-1,2,3,4-tetrahydroisoquinoline], `COc1cc(C)c(/C=C/C2c3cc(OC)c(OCc4ccccc4)cc3CCN2C(=O)c2cccnc2)cc1OCc1ccccc1` (centres unmarked) [Example T, [6-benzyloxy-1-[(E)-2-(5-benzyloxy-4-methoxy-2-methyl-phenyl)vinyl]-7-methoxy-3,4-dihydro-1H-isoquinolin-2-yl]-(3-pyridyl)methanone] is higher in SI: 3.8 for the first, 107 for the second.

With `COc1cc2c(cc1OCc1ccccc1)CCNC2/C=C/c1ccccc1C` (centres unmarked) [Example W, 6-benzyloxy-7-methoxy-1-[(E)-2-(o-tolyl)vinyl]-1,2,3,4-tetrahydroisoquinoline] the SI was 5.8.

With `CCCCN1CCc2cc(OC)c(OCc3ccccc3)cc2C1/C=C/c1ccc(OCc2ccccc2)c(OC)c1` (centres unmarked) [Example D, 7-Benzyloxy-1-[(E)-2-(4-benzyloxy-3-methoxy-phenyl)vinyl]-2-butyl-6-methoxy-3,4-dihydro-1H-isoquinoline] the SI was greater than 1.1.
Molecule `COc1cc(C)c(/C=C/C2c3cc(OC)c(OCc4ccccc4)cc3CCN2C(=O)NC(C)(C)C)cc1OCc1ccccc1` (centres unmarked) [Example O, 6-benzyloxy-1-[(E)-2-(5-benzyloxy-4-methoxy-2-methyl-phenyl)vinyl]-N-tert-butyl-7-methoxy-3,4-dihydro-1H-isoquinoline-2-carboxamide] has an SI greater than 5.
For `COc1cc(C)c(/C=C/C2c3cc(OC)c(OCc4ccccc4)cc3CCN2C(=O)c2ccncc2)cc1OCc1ccccc1` (centres unmarked) [Example U, [6-benzyloxy-1-[(E)-2-(5-benzyloxy-4-methoxy-2-methyl-phenyl)vinyl]-7-methoxy-3,4-dihydro-1H-isoquinolin-2-yl]-(4-pyridyl)methanone], the SI was greater than 115.
